The test system of the experiment is Nude mice, LX-1 lung xenograft intrarenal, tumor weight T/C. Description: NCI In Vivo Anticancer Drug Screen. Data for tumor model Human Lung LX-1 Xenograft (intrarenal inoculation) in NU/NU BALB/C (nude) mice. The settings on record: endpoint: mean tumor weight change, schedule: Q04DX003 (ip), vehicle: saline, higher = larger tumour. The protocol:
The antitumor activity of compounds was measured in mice bearing transplantable tumors. Survival or tumor size were measured and the results are expressed as the measurement made in the treated group (T) divided by the measurement made in the vehicle treated control group (C). The tumor model used in this assay is Human Lung LX-1 Xenograft (intrarenal inoculation) in NU/NU BALB/C (nude) mice
For orientation: In xenograft studies the graft and the host belong to different species.

“And” between values parts separate entries of the source, which are not always exact repeats. Equal entries are not always repeated. Inconclusive results are not listed.

With `O=P1(N(CCCl)CCCl)NC(SCCS(=O)(=O)O)CCO1` (centres undefined), the T/C was 60 % of control and 81 % of control (dose: 37.5 mg/kg/injection); 59 % of control and 61 % of control (dose: 75.0 mg/kg/injection); 33 % of control and 40 % of control (dose: 150.0 mg/kg/injection); 14 % of control (dose: 300.0 mg/kg/injection).

The values above are taken from PubChem BioAssay AID266 (DTP/NCI, 2004).
